Experimental data: PubChem BioAssay AID1259414 (Drosophila RNAi Screening Center, 2018)
Assay: 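Fly genes that alter Wolbachia amount inside host cells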 (primary screen). Cells: Drosophila JW18 cells infected with Wolbachia. Reagent: long dsRNA against Drosophila genes, 0.25 µg dsRNA per well of a 384-well plate. Timing: 5 days. Treatment: cells persistently infected with Wolbachia before knock-down; no added drug. Read-out: 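Automated imaging of bacterial rRNA staining divided by host cell count, reported as plate-normalised robust z-score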. Direction: Wolbachia per cell robust z: higher = more Wolbachia per host cell than the plate typical. Call rule: 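Hit when robust z is 1.5 or more, or -1.5 or less, in at least two of three replicates; excludes dsRNAs with several or no targets, genes not expressed in JW18 and well A1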.
The screen tested about 24,000 reagents; shown is an unselected part of those that have a named target and a result. In the full data, about 1,210 (5%) got an active call. 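Inactive calls also include excluded dsRNAs with several or no targets, genes unexpressed in JW18, and well A1, regardless of score.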 A plus sign joins genes that one reagent is predicted to hit.

| target | DRSC id | Wolbachia per cell robust z, rep 1 | Wolbachia per cell robust z, rep 2 | Wolbachia per cell robust z, rep 3 | outcome |
| --- | --- | --- | --- | --- | --- |
| CG14442 | DRSC25040 | 0.0776 | 0.46 | 2.39 | inactive |
| CG33116 | DRSC02045 | -0.418 | 0.647 | 0.811 | inactive |
| CG33116 | DRSC38671 | 0.81 | -0.632 | -0.644 | inactive |
| Klp67A + CG34456 | DRSC10420 | -3.51 | 0.149 | 0.0212 | inactive |
| CG31516 | DRSC11994 | 0.402 | 0.137 | -0.878 | inactive |
| Pgant1 (Polypeptide N-Acetylgalactosaminyltransferase 1) | DRSC07095 | -1.27 | -0.592 | 0.256 | inactive |
| CG7382 | DRSC03052 | -0.111 | 0.691 | 0.792 | inactive |
| CG7382 | DRSC27512 | -0.943 | 0.152 | -0.49 | inactive |
| CG46339 | DRSC14136 | 1.34 | 0.565 | -0.558 | inactive |
| CG46339 | DRSC24047 | 0.754 | -0.0551 | 0.749 | inactive |
| Dic1 | DRSC14125 | 0.246 | 1.05 | 0.365 | inactive |
| CG4363 | DRSC04465 | -0.661 | 0.483 | -0.49 | inactive |
| foxo (forkhead box, sub-group O) | DRSC13017 | 1.13 | 1.27 | 1.24 | inactive |
| foxo (forkhead box, sub-group O) | DRSC15463 | 1.02 | 1.38 | 1.01 | inactive |
| foxo (forkhead box, sub-group O) | DRSC40808 | 0.858 | 0.595 | -0.484 | inactive |
| CG42445 | DRSC10858 | -6.81 | 0.259 | -0.591 | inactive |
| CG43078 | DRSC10292 | -0.662 | 0.647 | 0.12 | inactive |
| CG43078 | DRSC10608 | -1.3 | -3.48 | 0.0769 | inactive |
| CG43078 | DRSC21541 | -0.374 | -1.05 | 0.365 | inactive |
| CG43078 | DRSC22327 | 0.582 | 0.92 | 0.263 | inactive |
| CG43078 | DRSC27481 | 0.00039 | -0.123 | -9.94 | inactive |
| CG15373 | DRSC19663 | -1.49 | -0.881 | -0.761 | inactive |
| CG4459 | DRSC15582 | -0.988 | 0.532 | 0.506 | inactive |
| CG8560 | DRSC10994 | -0.619 | -0.0191 | -0.969 | inactive |
| CG8560 | DRSC23854 | -0.414 | 0.0278 | 0.6 | inactive |
| Lsm12a (LSM12 homolog a) | DRSC19702 | 1.05 | -2.63 | 0.62 | inactive |
| Stlk (Ste20-like kinase) | DRSC22687 | -2.34 | 0.73 | -0.338 | inactive |
| Oatp26F (Organic anion transporting polypeptide 26F) | DRSC02149 | 0.215 | 0.212 | 0.454 | inactive |
| Oatp26F (Organic anion transporting polypeptide 26F) | DRSC02272 | -1.75 | -1.07 | 0.445 | inactive |
| Oatp26F (Organic anion transporting polypeptide 26F) | DRSC02695 | -0.805 | 0.227 | -2.41 | inactive |
| Oatp26F (Organic anion transporting polypeptide 26F) | DRSC27346 | 0.744 | 1.22 | 0.644 | inactive |
| Iris | DRSC00663 | -0.977 | 0.423 | 0.607 | inactive |
| tap (target of Poxn) | DRSC11402 | -1.8 | -3.73 | -0.207 | inactive |
| Rhp (Rhophilin) | DRSC20279 | -0.714 | -0.484 | -0.0544 | inactive |
| CG9917 | DRSC20218 | -0.383 | -7.64 | -0.912 | inactive |
| Elo68alpha (Elongase 68alpha) | DRSC22725 | 0.264 | 0.901 | -0.703 | inactive |
| ND-13B (NADH dehydrogenase (ubiquinone) 13 kDa B subunit) | DRSC10643 | -1.01 | 0.794 | 0.552 | inactive |
| ND-13B (NADH dehydrogenase (ubiquinone) 13 kDa B subunit) | DRSC29920 | 0.491 | -2.1 | -1.36 | inactive |
| CG10866 | DRSC08171 | 0.617 | 0.127 | -1.13 | inactive |
| CG10866 | DRSC29672 | 0.465 | -0.206 | 0.0345 | inactive |
| beta4GalNAcTB (beta1,4-N-acetylgalactosaminyltransferase B) | DRSC14869 | 0.339 | -2.56 | -4.35 | inactive |
| ben (bendless) | DRSC20310 | -0.896 | -1.51 | -1.3 | inactive |
| ben (bendless) | DRSC21261 | 0.554 | 0.533 | 0.743 | inactive |
| ben (bendless) | DRSC29133 | -0.0394 | 0.313 | -0.864 | inactive |
| CG5569 | DRSC04514 | 0.785 | -0.518 | 0.668 | inactive |
| Nubp2 (NUBP iron-sulfur cluster assembly factor 2) | DRSC11758 | -1.28 | 0.359 | -0.801 | inactive |
| CG5157 | DRSC10488 | -0.929 | 0.529 | -1.43 | inactive |
| CG5157 | DRSC27474 | -1.29 | 0.0843 | -0.911 | inactive |
| CG5157 | DRSC39055 | -0.135 | 0.35 | -0.111 | inactive |
| mthl3 (methuselah-like 3) | DRSC06997 | -0.0141 | -1.94 | -0.18 | inactive |
| mthl3 (methuselah-like 3) | DRSC24927 | -0.686 | 1.08 | -0.988 | inactive |
| eIF3l (eukaryotic translation initiation factor 3 subunit l) | DRSC10530 | 1.29 | 0.737 | 0.882 | inactive |
| eIF3l (eukaryotic translation initiation factor 3 subunit l) | DRSC26186 | -2.13 | -0.882 | -0.596 | inactive |
| CG5292 | DRSC15763 | -1.7 | -1.51 | -0.488 | active |
| CG5292 | DRSC26304 | 0.487 | -0.816 | 0.0498 | inactive |
| CG15696 | DRSC15118 | 0.163 | 0.984 | 0.294 | inactive |
| CG15696 | DRSC25170 | 0.373 | -0.831 | -0.323 | inactive |
| NPFR (Neuropeptide F receptor) | DRSC12173 | -0.429 | -1.31 | 0.0118 | inactive |
| Syp (Syncrip) | DRSC13444 | 0.525 | 0.28 | 0.741 | inactive |
| Syp (Syncrip) | DRSC15286 | -0.796 | -0.153 | -1.75 | inactive |
| Syp (Syncrip) | DRSC29126 | 0.667 | -0.219 | -5.2 | inactive |
| CG6553 | DRSC07002 | -3.99 | -0.562 | -0.0846 | inactive |
| Phm (Peptidylglycine-alpha-hydroxylating monooxygenase) | DRSC04639 | -4.28 | 1.42 | -3.48 | inactive |
| ND-SGDH (NADH dehydrogenase (ubiquinone) SGDH subunit) | DRSC11102 | -0.253 | -0.984 | -0.29 | inactive |
| uzip (unzipped) | DRSC04722 | 0.684 | 0.676 | -0.228 | inactive |
| uzip (unzipped) | DRSC30045 | -4.24 | 0.268 | -0.694 | inactive |
| viaf (viral IAP-associated factor) | DRSC10326 | 0.0666 | -0.233 | -0.661 | inactive |
| CG32647 | DRSC19690 | 0.589 | 0.743 | -2.8 | inactive |
| CG32647 | DRSC19878 | 0.865 | 0.124 | -1.47 | inactive |
